Compound potency records, mixed from different reports. Data source: NIAID ChemDB in PubChem.

Shared fields: tests in culture; organism: HIV-1

ECn: concentration that inhibits the pathogen or its effect by n%. a–b is a range or a potency band. Neighbouring rows are from separate reports.

N#Cc1cc2[nH]c3ccccc3c2n(-c2ccc([N+](=O)[O-])cc2)c1=O ; mutations: RT-F227C ; read-out: EC50 ; cells: MT-4 ; strain: E ; method: cytopathic effect / MTT ; result: 1.99 µM
CN1CCn2c(nc(C(=O)NCc3ccc(F)cc3)c(O)c2=O)C(NC(=O)C(=O)N(C)C)C1 ; read-out: EC95 ; cells: MT-4 ; method: p24 ; result: <1 µM
C#C[C@@]1(CO)C=C[C@H](n2cc(C)c(=O)[nH]c2=O)O1 ; mutations: K103N/M184V ; read-out: EC50 ; cells: MT-2 ; strain: Clinical isolate ; method: recombinant virus assay ; result: 0.8721 µM
O=C1Nc2ccc(Cl)cc2[C@@](/C=C/C2CC2)(C(F)(F)F)N1 ; mutations: RT-Y188C ; read-out: EC90 ; result: <0.012 µM
COc1ccc(N(C)C(=O)[C@H](Cc2ccccc2)NC(=O)OCCOC(=O)N[C@@H](Cc2ccccc2)C(=O)N(C)c2ccc(OC)cc2)cc1 ; read-out: EC50 ; cells: MT-2 ; strain: NL4-3 ; method: luciferase ; result: 2.6 µM
CN1CCn2c(nc(C(=O)NCc3ccc(F)cc3)c(O)c2=O)C(N(CC2CCCCC2)C(=O)C(=O)N(C)C)C1 ; read-out: EC50 ; cells: MT-4 ; method: p24 ; result: <1 µM
CN(C(=O)[C@H](Cc1cc(F)cc(F)c1)NC(=O)NS(=O)(=O)N[C@@H](Cc1cc(F)cc(F)c1)C(=O)N(C)c1ccc(Cl)cc1)c1ccc(Cl)cc1 ; read-out: EC50 ; cells: MT-2 ; strain: NL4-3 ; method: luciferase ; result: 0.04 µM
O=C(NCc1ccc(F)cc1)c1nc2n(c(=O)c1O)CCN(C(=O)C(F)(F)F)C2 ; read-out: EC50 ; cells: MT-4 ; method: p24 ; result: <50 µM
N#CC1=CC2C(c3ccccc3N2CCCCN2CCOCC2)N(c2ccc([N+](=O)[O-])cc2)C1=O ; read-out: EC50 ; cells: MT-4 ; strain: LAI ; method: cytopathic effect / MTT ; result: <1 µM
CCN1c2ncc(CCOc3ccc4cc(CC(=O)O)ccc4c3C)cc2C(=O)N(C)c2cccnc21 ; mutations: RT-V106A ; read-out: EC50 ; cells: C8166 ; method: p24 ; result: 0.1–1 µM
COc1ccc(N(C)C(=O)[C@H](Cc2ccccc2)NC(=O)c2cncc(C(=O)N[C@@H](Cc3ccccc3)C(=O)N(C)c3ccc(OC)cc3)n2)cc1 ; read-out: EC50 ; cells: MT-2 ; strain: NL4-3 ; method: luciferase ; result: 0.96 µM
COP(=O)(c1cc(C)cc(CCC#N)c1)c1c(C(N)=O)[nH]c2ccc(Cl)c(F)c12 ; mutations: K103N/Y181C ; read-out: EC50 ; cells: PBMC ; strain: Clinical isolate ; result: 0.0027 µM
N#CC1=CC2C(c3ccccc3N2Cc2ccccc2)N(c2ccc([N+](=O)[O-])cc2)C1=O ; read-out: EC50 ; cells: MT-4 ; strain: LAI ; method: cytopathic effect / MTT ; result: 1–32 µM
CCN(CC)CCN1CCn2c(nc(C(=O)NCc3ccc(F)cc3)c(O)c2=O)C1(C)C ; read-out: EC95 ; cells: MT-4 ; method: p24 ; result: <1 µM
CC(C)=CCOc1cc(NC(=S)c2ccoc2C)ccc1Cl ; mutations: RT-K101E ; read-out: EC50 ; cells: CEM + CEM-SS ; strain: NL4-3 ; method: p24 ; result: 0.04 µM
Cc1ccc(-c2ccc3c(c2)C=C(C(=O)Nc2ccc(C[N+](C)(C)C4CCOCC4)cc2)CCC3)cc1 ; read-out: EC50 ; cells: PBMC ; strain: COT6 CLADE C ; method: p24 ; result: <5 µM
O=C1Nc2ccc(F)c(F)c2[C@@](C#CC2CC2)(C(F)(F)F)N1 ; read-out: EC90 ; result: 0.0009 µM
CCc1ncc(N(C)C(=O)[C@H](Cc2cc(F)cc(F)c2)NC(=O)NS(=O)(=O)N[C@@H](Cc2cc(F)cc(F)c2)C(=O)N(C)c2cnc(CC)nc2)cn1 ; read-out: EC50 ; cells: MT-2 ; strain: NL4-3 ; method: luciferase ; result: 16.03 µM
CN1CCn2c(nc(C(=O)NCc3ccc(F)cc3)c(O)c2=O)C1CN(C)S(=O)(=O)N(C)C ; read-out: EC95 ; cells: MT-4 ; method: p24 ; result: 1–10 µM
CCN1c2ncc(CCOc3ccc(-c4ccc(CC(=O)O)c(C)c4)cc3C)cc2C(=O)N(C)c2cccnc21 ; mutations: RT-K103N Y181C ; read-out: EC50 ; cells: C8166 ; method: p24 ; result: 0.01–0.05 µM
CN(C(=O)[C@H](Cc1cc(F)cc(F)c1)NC(=O)NS(=O)(=O)N[C@@H](Cc1cc(F)cc(F)c1)C(=O)N(C)c1cccnc1)c1cccnc1 ; read-out: EC50 ; cells: MT-2 ; strain: NL4-3 ; method: luciferase ; result: 4.14 µM
CCN1c2ncc(CCOc3ccc(C(=O)NC(C)(C)CC(=O)O)cc3C)cc2C(=O)N(C)c2cccnc21 ; mutations: RT-K103N Y181C ; read-out: EC50 ; cells: C8166 ; method: p24 ; result: >0.05 µM
CCc1ccc(-c2c(C(OC(C)(C)C(F)(F)F)C(=O)O)c(C)nc3ccc(Cl)cc23)cc1 ; read-out: EC50 ; cells: C8166 ; method: luciferase / reporter gene ; result: <20 µM
CCN1c2ncc(CCOc3ccc(C(=O)O)c4c3CCC4)cc2C(=O)N(C)c2ccc(Cl)nc21 ; mutations: RT-K103N Y181C ; read-out: EC50 ; cells: C8166 ; method: p24 ; result: <0.1 µM
CCN1c2ncc(CCOc3ccc(Nc4ccc(C(=O)O)cc4)cc3C)cc2C(=O)N(C)c2cccnc21 ; read-out: EC50 ; cells: C8166 ; strain: IIIB ; method: p24 ; result: <0.01 µM
CCc1ccc(-c2c(C(OC3(C)CCC3)C(=O)O)c(C)nc3ccc(Cl)cc23)cc1 ; read-out: EC50 ; cells: C8166 ; method: luciferase / reporter gene ; result: <20 µM
Nc1nc(NC2CC2)c2ncn([C@H]3C=C[C@@H](CO)C3)c2n1 ; mutations: M41L/K67N/K70R/A98G/K101E/M184V/G190A/L210W/T215Y/K219E ; read-out: EC50 ; cells: MT-2 ; strain: Clinical isolate ; method: recombinant virus assay ; result: 0.968 µM
CC1(C)c2nc(C(=O)NCc3ccc(F)cc3)c(O)c(=O)n2CCN1CC(=O)N1CCOCC1 ; read-out: EC95 ; cells: MT-4 ; method: p24 ; result: <1 µM
Cc1ccc(C)n1-c1ccc(C(=O)O)c(O)c1 ; read-out: EC90 ; cells: PBMC + MT-2 ; strain: 93TH051 X4R5 CLADE E ; method: p24 ; result: 17.3 µM
Cc1cc(C)cc(Cc2c(I)c(=O)[nH]c(=O)n2COCc2ccccc2)c1 ; read-out: EC50 ; cells: PBMC ; strain: SF33 ; method: p24 / ELISA ; result: 0.003 µM
CN1c2ccccc2C2C1C=CC(=O)N2c1ccc(-c2noc(=O)[nH]2)cc1 ; read-out: EC50 ; cells: MT-4 ; strain: LAI ; method: cytopathic effect / MTT ; result: >32 µM
CCN1c2ncc(CCOc3ccc(NC(=O)CCC(=O)O)c4ccccc34)cc2C(=O)N(C)c2cccnc21 ; mutations: RT-K103N Y181C ; read-out: EC50 ; cells: C8166 ; method: p24 ; result: 0.1–1 µM
CN(C(=O)[C@H](Cc1cc(F)cc(F)c1)NC(=O)Cn1c(=O)n(CC(=O)N[C@@H](Cc2cc(F)cc(F)c2)C(=O)N(C)c2ccc3scnc3c2)c2ccccc21)c1ccc2scnc2c1 ; read-out: EC50 ; cells: MT-2 ; strain: NL4-3 ; method: luciferase ; result: 0.01 µM
COCCOC(C(=O)O)c1c(C)nc2ccc(Br)cc2c1-c1ccc(Cl)cc1 ; read-out: EC50 ; cells: C8166 ; method: luciferase / reporter gene ; result: <20 µM
CCN1c2ncc(CCOc3ccc4cc(C(=O)NN)ccc4c3)cc2C(=O)N(C)c2cccnc21 ; read-out: EC50 ; cells: C8166 ; strain: WT ; method: p24 ; result: <0.1 µM
CN1CCN(CCCN2c3ccccc3C3C2C=C(C#N)C(=O)N3c2ccc([N+](=O)[O-])cc2)CC1 ; read-out: EC50 ; cells: MT-4 ; strain: LAI ; method: cytopathic effect / MTT ; result: <1 µM
CCc1ccc(-c2c(C(OC(C)(C)C)C(=O)O)c(C)nc3ccccc23)cc1 ; read-out: EC50 ; cells: C8166 ; method: luciferase / reporter gene ; result: <20 µM
COc1ccnc2[nH]cc(C(=O)C(=O)N3C4CCC3CN(C(=O)c3ccccc3)C4)c12 ; read-out: EC90 ; cells: TZM-bl ; strain: ZM214 ; method: luciferase ; result: 59 µM
CCc1ccc(-c2c(C(OC3(C)CCCC3)C(=O)O)c(C)nc3ccc(Cl)cc23)cc1 ; read-out: EC50 ; cells: C8166 ; method: luciferase / reporter gene ; result: <20 µM
CN1c2ccccc2C2C1C=CC(=O)N2c1ccc(-c2nc(C(=O)O)cs2)cc1 ; read-out: EC50 ; cells: MT-4 ; strain: LAI ; method: cytopathic effect / MTT ; result: 1–32 µM
CCc1ccc(-c2c(C(OC(CC)CC)C(=O)O)c(C)nc3ccc(Cl)cc23)cc1 ; read-out: EC50 ; cells: C8166 ; method: luciferase / reporter gene ; result: <20 µM
CC(=O)c1ccc(-c2ccc(N3C(=O)C(C#N)=CC4C3c3ccccc3N4C)cc2)s1 ; read-out: EC50 ; cells: MT-4 ; strain: LAI ; method: cytopathic effect / MTT ; result: 1–32 µM
COc1ccc(N(C)C(=O)[C@H](Cc2ccccc2)NC(=O)c2ccnc(C(=O)N[C@@H](Cc3ccccc3)C(=O)N(C)c3ccc(OC)cc3)c2)cc1 ; read-out: EC50 ; cells: MT-2 ; strain: NL4-3 ; method: luciferase ; result: 0.68 µM
CC(C)CN(C[C@@H](O)[C@H](Cc1ccccc1)NC(=O)O[C@H]1CO[C@H]2OCC[C@H]21)S(=O)(=O)c1ccc2c(c1)OCO2 ; mutations: L23I/K43I/M46I/I50L/G51A/A71V ; read-out: EC50 ; cells: MT-4 ; strain: NL4-3 (ATV1) ; method: p24 ; result: 0.0015 µM
CCN1c2ncc(CCOc3ccc(C(=O)N=c4ccccn4O)cc3C)cc2C(=O)Nc2c(C)ccnc21 ; read-out: EC50 ; cells: C8166 ; strain: IIIB ; method: p24 ; result: <0.01 µM
CCC(=O)c1ccc(F)c([C@@H]2C[C@@H]2NC(=O)Nc2ccc(C#N)cn2)c1O ; mutations: NNRTI-resistant (RT K103N/Y181C) ; read-out: EC50 ; cells: TZM-bl ; strain: LAI ; method: β-galactosidase / luminescence ; result: 0.182 µM
COc1cc(-c2ccc(N=Nc3ccc4c(S(=O)(=O)O)cc(S(=O)(=O)O)c(N)c4c3O)c(OC)c2)ccc1N=Nc1ccc2c(S(=O)(=O)O)cc(S(=O)(=O)O)c(N)c2c1O ; read-out: EC50 ; cells: CEM + CEM-SS ; strain: RF ; method: cytopathic effect / XTT ; result: 1.7 µM
COc1ccc(N(C)C(=O)[C@H](Cc2cc(F)cc(F)c2)NC(=O)Cn2c(=O)c3ccccc3c(=O)n2CC(=O)N[C@@H](Cc2cc(F)cc(F)c2)C(=O)N(C)c2ccc(OC)cc2)cc1 ; read-out: EC50 ; cells: MT-2 ; strain: NL4-3 ; method: luciferase ; result: 0.09 µM
COc1ccnc2[nH]cc(C(=O)C(=O)N3C4CCCC3CN(C(=O)c3ccccc3)C4)c12 ; read-out: EC99 ; cells: TZM-bl ; strain: AC10 ; method: luciferase ; result: 22 µM
Cc1nc2ccc(Br)cc2c(-c2ccc(Cl)cc2)c1C(OC(C)C)C(=O)O ; read-out: EC50 ; cells: C8166 ; method: luciferase / reporter gene ; result: <20 µM